Measured values from several laboratories, pooled; numbers as filed in NIAID ChemDB.

All rows: whole-cell or culture tests; species: HIV-1

ECn: concentration that inhibits the pathogen or its effect by n%. Blank or dashed fields: not listed here. a–b is a range or a potency band. Lines come from different laboratories, so protocols vary.

compound | changes | measure | cells | strain | read by | result
CCNC(=O)[C@@H]1Cn2c(=O)c(C(=O)NCCOC)c(O)c3ncc(Cc4ccc(F)cc4)c(c32)O1 | - | EC50 | MT-2 | IIIB | ATP / luminescence | 0.008 µM
CO[C@H]1N([C@H]2C[C@H](N=[N+]=[N-])[C@@H](CO)O2)C(=O)NC(=O)[C@]1(C)Br | - | EC50 | CEM | - | cytopathic effect / XTT | 5.79 µM
CCN(C)C(=O)C1=Cn2c(=O)c(C(=O)NCCOC)c(O)c3ncc(Cc4ccc(F)cc4)c(c32)O1 | - | EC50 | MT-2 | IIIB | ATP / luminescence | 0.0061 µM
Fc1ccc(NC(=S)Nc2nc3ccccc3s2)cc1Cl | - | EC50 | MT-4 | IIIB | MTT | >14 µM
Cc1cc(C)c(-n2nnnc2SCC(=O)Nc2ccc(S(N)(=O)=O)cc2C)c(C)c1 | - | EC95 | MT-4 | - | p24 | <10 µM
C=C(C)[C@@H]1CC[C@]2(NCCN3CCN(S(=O)(=O)N(C)C)CC3)CC[C@]3(C)[C@H](CC[C@@H]4[C@@]5(C)CC[C@H](OC(=O)[C@H]6C[C@@H](C(=O)O)C6(C)C)C(C)(C)[C@@H]5CC[C@]43C)[C@@H]12 | - | EC50 | MT-2 | 92HT599 | p24 / ELISA | ≤0.01 µM
C=C(C)CNC(=S)Nc1nc2ccccc2s1 | - | EC50 | MT-4 | IIIB | MTT | >100 µM
O=c1cc(-c2ccc(O)cc2O)oc2cc(O)cc(O)c12 | - | EC50 | PBMC | LAV | RT activity | 3.3 µM
CC1(C)N=C(N)N=C(N)N1c1cccc(CCCCOc2ccccc2)c1 | - | EC50 | CEM | - | cytopathic effect / XTT | 0.00525 µM
CC(C)C1=C2[C@H]3CC[C@@H]4[C@@]5(C)CC[C@H](OC(=O)[C@H]6C[C@@H](C(=O)O)C6(C)C)C(C)(C)[C@@H]5CC[C@@]4(C)[C@]3(C)CC[C@@]2([C@@H](O)CNCC(C)(C)NC(=O)c2ccc(N3CCN(C)CC3)cc2)CC1=O | - | EC50 | MT-2 | 92HT599 | p24 / ELISA | <1 µM
COc1cc(OC)c2ccc(=O)oc2c1CC(O)C(C)(C)O | - | EC50 | PBMC | LAV | RT activity | >100 µM
CC(C)C1=C2[C@H]3CC[C@@H]4[C@@]5(C)CC[C@H](OC(=O)[C@H]6C[C@@H](C(=O)O)C6(C)C)C(C)(C)[C@@H]5CC[C@@]4(C)[C@]3(C)CC[C@@]2(CC(=O)NCC(C)(C)NC(=O)c2ccc(F)cc2)CC1=O | - | EC50 | MT-2 | 92HT599 | p24 / ELISA | <1 µM
O=C(CSc1nnnn1-c1ccccc1-c1ccccc1)Nc1ccccc1Cl | - | EC50 | MT-4 | - | p24 | <10 µM
Nc1ccn([C@H]2C[C@H]3OC[C@@H](O)[C@H]3O2)c(=O)n1 | - | EC50 | MT-4 | - | - | >100 µM
O=C(CCSc1nnnn1-c1cccc2ccccc12)Nc1ccccc1Cl | - | EC50 | MT-4 | - | p24 | <10 µM
Cc1cn([C@H]2C[C@H](N=[N+]=[N-])[C@@H](CO)O2)c(=O)[nH]c1=O | AZT-resistant | EC50 | MT-4 | IIIB | MTT | 0.35 µM
CC(C)C1=C2[C@H]3CC[C@@H]4[C@@]5(C)CC[C@H](OC(=O)[C@H]6C[C@@H](C(=O)O)C6(C)C)C(C)(C)[C@@H]5CC[C@@]4(C)[C@]3(C)CC[C@@]2(CC(=O)NCc2ccc(O[C@@H]3CCOC3)cc2)CC1=O | - | EC50 | MT-2 | 92HT599 | p24 / ELISA | <1 µM
CN(C)C(=O)N1CCC2(CC1)OCCCn1c2nc(C(=O)NCc2ccc(F)cc2)c(O)c1=O | - | EC50 | MT-2 | NL4-3 | luciferase / reporter gene | 0.001–0.01 µM
CNC(=O)c1c(O)c2ncc(Cc3ccc(F)cc3)c3c2n(c1=O)C[C@H](Cn1ccnc1)O3 | - | EC50 | MT-2 | IIIB | ATP / luminescence | 0.0012 µM
COc1c2ccoc2c(OCC(O)C(C)(C)O)c2oc(=O)ccc12 | - | EC50 | PBMC | LAV | RT activity | >100 µM
C=C(C)[C@@H]1CC[C@]2(NCCN3CCN(S(=O)(=O)C(C)C)CC3)CC[C@]3(C)[C@H](CC[C@@H]4[C@@]5(C)CC[C@H](OC(=O)[C@H]6C[C@@H](C(=O)O)C6(C)C)C(C)(C)[C@@H]5CC[C@]43C)[C@@H]12 | - | EC50 | MT-2 | 92HT599 | p24 / ELISA | ≤0.01 µM
CC(C)=CCOc1ccc2ccc(=O)oc2c1CC(=O)C(C)C | - | EC50 | PBMC | LAV | RT activity | 23.2 µM
CC(C)C1=C2[C@H]3CC[C@@H]4[C@@]5(C)CC[C@H](OC(=O)[C@H]6C[C@@H](C(=O)O)C6(C)C)C(C)(C)[C@@H]5CC[C@@]4(C)[C@]3(C)CC[C@@]2(CC(=O)NCc2ccc(Cl)cc2OCCN2CCCCC2)CC1=O | - | EC50 | MT-2 | 92HT599 | p24 / ELISA | <1 µM
C=C(C)[C@@H]1CC[C@]2(NCCN3CCOCC3)CC[C@]3(C)[C@H](CC[C@@H]4[C@@]5(C)CC[C@H](OC(=O)[C@H]6C[C@@H](C(=O)O)C6(C)C)C(C)(C)[C@@H]5CC[C@]43C)[C@@H]12 | - | EC50 | MT-2 | 92HT599 | p24 / ELISA | ≤0.01 µM
CO[C@H]1N([C@H]2C=C[C@@H](CO)O2)C(=O)NC(=O)[C@]1(C)Cl | - | EC50 | CEM | - | cytopathic effect / XTT | 375 µM
CC(C)C1=C2[C@H]3CC[C@@H]4[C@@]5(C)CC[C@H](OC(=O)[C@H]6C[C@@H](C(=O)O)C6(C)C)C(C)(C)[C@@H]5CC[C@@]4(C)[C@]3(C)CC[C@@]2(CCNCC(C)(C)NC(=O)c2ccc(S(C)(=O)=O)cc2)CC1=O | - | EC50 | MT-2 | 92HT599 | p24 / ELISA | <1 µM
Cc1cc(C)c(-n2nnnc2SCC(=O)Nc2ccccc2N)c(C)c1 | - | EC50 | MT-4 | - | p24 | <10 µM
COCCOc1ccc(CNC[C@H](O)[C@@]23CC[C@]4(C)[C@H](CC[C@@H]5[C@@]6(C)CC[C@H](OC(=O)[C@H]7C[C@@H](C(=O)O)C7(C)C)C(C)(C)[C@@H]6CC[C@]54C)C2=C(C(C)C)C(=O)C3)cc1 | - | EC50 | MT-2 | 92HT599 | p24 / ELISA | <1 µM
C=C(C)[C@]1(O)C[C@@H](C)[C@@]2(O)[C@H]([C@H]1OC(=O)/C=C/C=C/CCCCC)[C@@H]1O[C@]1(CO)[C@@H](O)[C@]1(O)C(=O)C(C)=C[C@H]12 | - | EC50 | C8166 | - | p24 / ELISA / antigen | 0.05901 µM
CC1([C@@H]2CC[C@]3(NCCN4CCN(S(=O)(=O)c5ccccc5)CC4)CC[C@]4(C)[C@H](CC[C@@H]5[C@@]6(C)CC[C@H](OC(=O)[C@H]7C[C@@H](C(=O)O)C7(C)C)C(C)(C)[C@@H]6CC[C@]54C)[C@@H]23)CC1 | - | EC50 | MT-2 | 92HT599 | p24 / ELISA | ≤0.01 µM
COc1cc2oc(-c3ccc(O)cc3O)c(CC=C(C)C)c(=O)c2c(O)c1CC=C(C)C | - | EC50 | PBMC | LAV | RT activity | 2.9 µM
Cc1ncn(-c2cc(F)ccc2CNC(=O)c2nc3n(c(=O)c2O)CCOC32CCN(S(=O)(=O)c3cc(F)ccc3C)CC2)n1 | - | EC50 | MT-2 | NL4-3 | luciferase / reporter gene | 0.001–0.01 µM
CC1([C@@H]2CC[C@]3(NCCN4CCN(C(=O)c5ccccc5)CC4)CC[C@]4(C)[C@H](CC[C@@H]5[C@@]6(C)CC[C@H](OC(=O)[C@H]7C[C@@H](C(=O)O)C7(C)C)C(C)(C)[C@@H]6CC[C@]54C)[C@@H]23)CC1 | - | EC50 | MT-2 | 92HT599 | p24 / ELISA | ≤0.01 µM
COc1cc2oc3c(c(=O)c2c(O)c1/C=C/C(C)C)C(C=C(C)C)Oc1cc(O)ccc1-3 | - | EC50 | PBMC | LAV | RT activity | 10 µM
Cc1ccc(F)cc1S(=O)(=O)N1CCC2(CC1)OCCn1c2nc(C(=O)NCc2ccc(F)cc2-n2ncnc2C)c(O)c1=O | - | EC50 | MT-2 | NL4-3 | luciferase / reporter gene | 0.001–0.01 µM
COc1c2ccoc2c(OC)c2oc(=O)ccc12 | - | EC50 | PBMC | LAV | RT activity | >100 µM
CC(NC(=S)Nc1nc2ccccc2s1)c1ccccc1 | MDR | EC50 | MT-4 | IIIB | MTT | 3 µM
C=C(C)[C@@H]1CC[C@]2(NCCN3CCN(C(=O)N(C)C)CC3)CC[C@]3(C)[C@H](CC[C@@H]4[C@@]5(C)CC[C@H](OC(=O)[C@H]6C[C@@H](C(=O)O)C6(C)C)C(C)(C)[C@@H]5CC[C@]43C)[C@@H]12 | - | EC50 | MT-2 | 92HT599 | p24 / ELISA | ≤0.01 µM
CC(C)[C@@H]1CC[C@]2(C(=O)O)CC[C@]3(C)[C@H](CC[C@@H]4[C@@]5(C)CC[C@H](OC(=O)CCC(=O)O)C(C)(C)[C@@H]5CC[C@]43C)[C@@H]12 | - | EC50 | H9 | IIIB | p24 / ELISA | 1.8 µM
CC(C)=CCC/C(C)=C/COc1ccc2ccc(=O)oc2c1 | - | EC50 | PBMC | LAV | RT activity | 5.7 µM
CC(=O)N1CCC2(CC1)OCCCn1c2nc(C(=O)NCc2ccc(F)cc2-n2ncnc2C)c(O)c1=O | - | EC50 | MT-2 | NL4-3 | luciferase / reporter gene | 0.01–0.1 µM
C=CCN(C(=O)OCc1ccc([N+](=O)[O-])cc1)C1CCN(C[C@H]2CN(C(=O)C3CCCC3)C[C@]2(O)c2ccccc2)CC1 | - | EC50 | PBMC | HNz2 R5 CLADE B | p24 | 0.0047 µM

A second listing of 5 rows from above:

{"compound": "CC1([C@@H]2CC[C@]3(NCCN4CCN(S(=O)(=O)c5ccccc5)CC4)CC[C@]4(C)[C@H](CC[C@@H]5[C@@]6(C)CC[C@H](OC(=O)[C@H]7C[C@@H](C(=O)O)C7(C)C)C(C)(C)[C@@H]6CC[C@]54C)[C@@H]23)CC1", "measure": "EC50", "cells": "MT-2", "strain": "92HT599", "read by": "p24 / ELISA", "result": "≤0.01 µM"}
{"compound": "C=C(C)[C@@H]1CC[C@]2(NCCN3CCN(C(=O)N(C)C)CC3)CC[C@]3(C)[C@H](CC[C@@H]4[C@@]5(C)CC[C@H](OC(=O)[C@H]6C[C@@H](C(=O)O)C6(C)C)C(C)(C)[C@@H]5CC[C@]43C)[C@@H]12", "measure": "EC50", "cells": "MT-2", "strain": "92HT599", "read by": "p24 / ELISA", "result": "≤0.01 µM"}
{"compound": "CN(C)C(=O)N1CCC2(CC1)OCCCn1c2nc(C(=O)NCc2ccc(F)cc2)c(O)c1=O", "measure": "EC50", "cells": "MT-2", "strain": "NL4-3", "read by": "luciferase / reporter gene", "result": "0.001–0.01 µM"}
{"compound": "Cc1ccc(F)cc1S(=O)(=O)N1CCC2(CC1)OCCn1c2nc(C(=O)NCc2ccc(F)cc2-n2ncnc2C)c(O)c1=O", "measure": "EC50", "cells": "MT-2", "strain": "NL4-3", "read by": "luciferase / reporter gene", "result": "0.001–0.01 µM"}
{"compound": "CC(C)[C@@H]1CC[C@]2(C(=O)O)CC[C@]3(C)[C@H](CC[C@@H]4[C@@]5(C)CC[C@H](OC(=O)CCC(=O)O)C(C)(C)[C@@H]5CC[C@]43C)[C@@H]12", "measure": "EC50", "cells": "H9", "strain": "IIIB", "read by": "p24 / ELISA", "result": "1.8 µM"}